Data taken from patent publication US5602278A (priority 1994, dated 1997).

What was measured:
[1] = cited from earlier work
[2] = test system: cell lines which lack the levels of reductive enzymes; settings: Denny et al. 1994; cited from earlier work
Stability = settings: conditions not stated

Structure (SMILES): O=C(O)CCCc1ccc([N+]([O-])(CCCl)CCCl)cc1
- rearrangement in aprotic solvents [1]: rearranges in aprotic solvents to the more stable hydroxylamine derivative
- hypoxic selectivity relative to chlorambucil [2]: no enhancement of hypoxic selectivity beyond the value for chlorambucil
- stability (Stability): stable
